Anti-infective test results gathered from many reports (values: NIAID ChemDB through PubChem).

Shared fields: whole-cell or culture tests; species: Candida albicans; read-out: MIC

Conditions beyond the fields shown may differ between rows.

CCCCCN(CCCCC)Cc1cccc(/C=N/NC(=O)c2ccncc2)c1N ; strain or isolate: MTCC 8184 ; result: 3.12 µg/mL
CCc1c2cc(O)c(O)cc2cc[n+]1C ; strain or isolate: IFO1061 ; result: >500 µg/mL
OC(Cn1cncn1)(Cn1cncn1)c1ccc(F)cc1F ; strain or isolate: ATCC 64549 ; result: >200 µg/mL
C[C@@H]1[C@H](O)[C@@H](C)/C=C/C=C/CC/C=C/C=C/C=C/C=C/C(O[C@H]2O[C@H](C)[C@@H](O)[C@H](N)[C@@H]2O)CC2O[C@](O)(CC(O)C(O)CCC(O)CC(O)CC(O)CC(=O)O[C@H]1C)CC(O)C2C(=O)O ; strain or isolate: MTCC 227 ; result: 100 µg/mL
Nc1c(/C=N/NC(=O)c2ccncc2)cccc1CN1CCCCC1 ; strain or isolate: MTCC 8184 ; result: 12.5 µg/mL
CCOC(=O)C1C(c2ccccc2)CC(c2ccc(OC)cc2)=CC12NCCN2 ; result: 12.5 µg/mL
CC[C@@]1(OC(=O)CN)C(=O)OCc2c1cc1n(c2=O)Cc2cc3c(N)c4c(cc3nc2-1)OCO4 ; strain or isolate: A39 ; result: >100 µg/mL
C[C@H]1[C@@H](OC2CCC(O)CC2)O[C@@H]2O[C@]3(C)CC[C@H]4[C@H](C)CC[C@@H]1C24OO3 ; strain or isolate: ATCC 90028 ; result: >50 µg/mL
CCOC(=O)CCNC(=S)Nc1ccc(OC)c(OC)c1 ; strain or isolate: ATCC2094 ; result: 70 µg/mL
C=C1CC[C@@]2(OC1)O[C@H]1C[C@H]3[C@@H]4CC=C5C[C@@H](O)[C@H](O)[C@@H](O[C@@H]6O[C@H](CO)[C@H](O)[C@H](O)[C@H]6O)[C@]5(C)[C@H]4CC[C@]3(C)[C@H]1[C@@H]2C ; result: ≥20 µg/mL
COc1ccc(NC(=S)NCCC(=O)OC(C)C)cc1OC ; strain or isolate: ATCC2094 ; result: 98 µg/mL
C[C@@H]1CC[C@@]2(OC1)O[C@H]1C[C@H]3[C@@H]4CC=C5C[C@@H](O)[C@H](O)[C@@H](O[C@@H]6OC[C@@H](O)[C@H](O)[C@H]6O)[C@]5(C)[C@H]4CC[C@]3(C)[C@@]1(O)[C@@H]2C ; result: ≥20 µg/mL
Cn1nc(-c2ccc(Cl)cc2)[n+]([O-])c2c(=O)n(C)c(=O)nc1-2 ; strain or isolate: IFO 0583 ; result: 50 µg/mL
COC(=O)CCNC(=S)Nc1ccc([N+](=O)[O-])cc1 ; strain or isolate: ATCC2094 ; result: >128 µg/mL
CCCCN(CCCC)Cc1cccc(/C=N/NC(=O)c2ccncc2)c1N ; strain or isolate: MTCC 8184 ; result: 3.12 µg/mL
CCOC(=O)C1C(c2ccc(Cl)cc2)CC(c2ccccc2)=CC12NCCN2 ; strain or isolate: CaCYP51 ; result: 50 µg/mL
CCCCCCCCCCNC1CCc2cccc(OC)c2C1 ; result: 0.0625 µM
c1ccc(CSCc2ccccc2)cc1 ; result: 128 µg/mL
c1cc2c[n+](c1)CCCCCCCCCCCCCc1ccc[n+](c1)CCCCCCCCCCCCC2 ; strain or isolate: ATCC 10231 ; result: 0.12 µg/mL
CC[C@@]1(O)C(=O)OCc2c1cc1n(c2=O)Cc2cc3c(N)c4c(cc3nc2-1)OCO4 ; strain or isolate: A39 ; result: >100 µg/mL
CCCCCCCCCCCCNC1CCc2cc(OC)ccc2C1 ; result: 8 µM
COc1ccc(/C=N/NC(=S)Nc2ccc(C(=O)NO)cc2)cc1OC ; result: 1.65 µM
CCC(C)c1cc2c(Cl)c3c(c(O)c2c(=O)n1N)-c1c(O)c2c(c4c1[C@@H](C3)OCO4)O[C@@H]1C(OC)=CC=C(O)[C@@H]1C2=O ; strain or isolate: 6 strains ; result: ~38 µg/mL
CC(C)C(=O)CCCNC(=S)NC1COOc2ccccc21 ; strain or isolate: ATCC2094 ; result: 38 µg/mL
[CH3][Sn]([CH3])([CH3])[S]c1nc2ccccc2o1 ; strain or isolate: ATCC 10231 ; result: 31.25 µg/mL
OCCSSCc1ccccc1 ; result: 128 µg/mL
CCOC(=O)C1C(c2ccc(F)cc2)CC(c2ccccc2)=CC12NCCN2 ; strain or isolate: CaCYP51 ; result: 200 µg/mL
CCC(C)n1ncn(-c2ccc(N3CCN(c4ccc(OC[C@H]5CO[C@](Cn6cncn6)(c6ccc(Cl)cc6Cl)O5)cc4)CC3)cc2)c1=O ; strain or isolate: Isogenic isolate 2 MDR1 (12X) ; result: 0.015 µg/mL
CN(C)Cc1cccc(/C=N/NC(=O)c2ccncc2)c1N ; strain or isolate: MTCC 8184 ; result: 25 µg/mL
CCCCCCN(CCCCCC)c1cc(N(CCCCCC)CCCCCC)c2ccc(C)nc2c1O ; result: 7.1 µg/mL
Nc1c(/C=N/NC(=O)c2ccncc2)cccc1CN1CCNCC1 ; strain or isolate: MTCC 8184 ; result: 3.12 µg/mL
O=S(Cc1ccccc1)SCc1ccccc1 ; result: 16 µg/mL
CCN(CC)C(=S)[S][Sn]([Cl])([Cl])[S]C(=S)N(CC)CC ; strain or isolate: ATCC 18804 ; result: 30 µg/mL
CCOC(=O)C1C(c2ccc(C)cc2)CC(c2ccccc2)=CC12NCCN2 ; result: 25 µg/mL
[CH3][Sn]([CH3])([CH3])[S]c1nc2ccccc2s1 ; strain or isolate: ATCC 10231 ; result: 125 µg/mL
C=C1[C@@H](OCCO)O[C@@H]2O[C@]3(C)CC[C@H]4[C@H](C)CC[C@@H]1C24OO3 ; strain or isolate: ATCC 90028 ; result: >50 µg/mL
CCCCCCCCCCCCNC1CCc2ccc(OC)cc2C1 ; result: 4 µM
COc1ccc(Cc2nccc3cc(OC)c(OC)cc23)cc1OC ; strain or isolate: IFO1061 ; result: >500 µg/mL
C=C(CCC1(OC)O[C@H]2C[C@H]3[C@@H]4CC=C5C[C@@H](O)[C@H](O)[C@@H](O[C@@H]6OC[C@@H](O)[C@H](O)[C@H]6O)[C@]5(C)[C@H]4CC[C@]3(C)[C@H]2[C@@H]1C)CO[C@@H]1O[C@H](CO)[C@@H](O)[C@H](O)[C@H]1O ; result: ≥20 µg/mL
CC(C)C1c2cc(OCc3ccccc3)c(OCc3ccccc3)cc2CCN1Cc1ccccc1 ; strain or isolate: IFO1061 ; result: >500 µg/mL
O=C(O)c1ccc[nH]c1=S ; strain or isolate: MTCC 183 ; result: 590 µg/mL
CC(=O)CCCNC(=S)Nc1ccccc1 ; strain or isolate: ATCC2094 ; result: >128 µg/mL
S=C([S][Sn]([c]1ccccc1)([c]1ccccc1)[c]1ccccc1)N1CCCC1 ; strain or isolate: ATCC 18804 ; result: 5 µg/mL
C[C@@H]1[C@H](O)[C@@H](C)/C=C/C=C/CC/C=C/C=C/C=C/C=C/C(O[C@H]2O[C@H](C)[C@@H](O)[C@H](N)[C@@H]2O)CC2O[C@](O)(CC(O)C(O)CCC(O)CC(O)CC(O)CC(=O)O[C@H]1C)CC(O)C2C(=O)O ; result: 12 µM
C[C@@H]1CC[C@@]2(OC1)O[C@H]1C[C@H]3[C@@H]4CC=C5C[C@@H](O[C@@H]6O[C@H](CO)[C@H](O[C@@H]7O[C@@H](C)[C@H](O)[C@@H](O)[C@H]7O)[C@@H](O)[C@H]6O[C@@H]6O[C@@H](C)[C@H](O)[C@@H](O)[C@H]6O)CC[C@]5(C)[C@H]4CC[C@]3(C)[C@H]1[C@@H]2C ; result: 2.5 µg/mL
CCCCCCCCNC1CCc2ccc(O)cc2C1 ; result: 0.0625 µM
S=C([S][Sn]([Cl])([Cl])[S]C(=S)N1CCCC1)N1CCCC1 ; strain or isolate: Drug-resistant isolate ; result: 2.5 µg/mL
COc1ccc(NC(=S)NCCCC(=O)C(C)C)cc1 ; strain or isolate: ATCC2094 ; result: 24 µg/mL
C/C(=N\NC(=S)Nc1ccc(C(=O)NO)cc1)c1ccccc1 ; result: 3 µM
CCN(CC)C(=S)[S][Sn]([c]1ccccc1)([c]1ccccc1)[c]1ccccc1 ; strain or isolate: ATCC 18804 ; result: 2.5 µg/mL
Cn1nc(-c2ccc(Cl)c(Cl)c2)[n+]([O-])c2c(=O)n(-c3ccccc3)c(=O)nc1-2 ; strain or isolate: IFO 0583 ; result: 50 µg/mL
CCCCCC1NCCc2cc(O)c(O)cc21 ; strain or isolate: IFO1061 ; result: >500 µg/mL
CC(C)OC(=O)CCNC(=S)Nc1ccccc1 ; strain or isolate: ATCC2094 ; result: 22 µg/mL
Clc1ccc(COC(Cn2ccnc2)c2ccc(Cl)cc2Cl)c(Cl)c1 ; strain or isolate: ATCC 10231 ; result: 15.6 µg/mL
CC(/C=C/C(O)C(C)/C=C/C(=O)O)=C\CC1OC2(CCC(C)C(/C=C/C(C)=C/C(=O)O)O2)CCC1C ; strain or isolate: ATCC 10231 ; result: 15 µg/mL
CCCN(CCC)Cc1cccc(/C=N/NC(=O)c2ccncc2)c1N ; strain or isolate: MTCC 8184 ; result: 50 µg/mL
Cn1nc(-c2ccccc2)[n+]([O-])c2c(=O)n(-c3ccccc3)c(=O)nc1-2 ; strain or isolate: IFO 0583 ; result: 50 µg/mL
CCCC(=O)Nc1c2sscc-2n(C)c1=O ; strain or isolate: IPA200 ; result: 20 µg/mL
CCOC(=O)C1C(c2ccc(C)cc2)CC(c2ccc(Cl)cc2)=CC12NCCN2 ; result: 12.5 µg/mL
CN(C)c1ccc(/C=N/NC(=S)Nc2ccc(C(=O)O)cc2)cc1 ; result: 1.34 µM
c1cc2c[n+](c1)CCCCCCCCCCCCCCc1ccc[n+](c1)CCCCCCCCCCCCCC2 ; strain or isolate: ATCC 10231 ; result: 0.7 µg/mL
Cn1nc(-c2cccc(Cl)c2)nc2c(=O)n(-c3ccccc3)c(=O)nc1-2 ; strain or isolate: IFO 0583 ; result: 50 µg/mL
CCOc1ccc(Cc2c3cc(OCC)c(OCC)cc3cc[n+]2C)cc1OCC ; strain or isolate: IFO1061 ; result: >500 µg/mL
CCCCN(CCCC)c1cc(N(CCCC)CCCC)c2ccc(C)nc2c1O ; result: 0.35 µg/mL
COc1ccc(/C=N/NC(=S)Nc2ccc(C(=O)O)cc2)cc1OC ; result: 2.45 µM
CCOC(=O)C1C(c2ccc(OC)cc2)CC(c2ccccc2)=CC12NCCN2 ; strain or isolate: CaCYP51 ; result: 25 µg/mL
CCCCCc1nccc2cc(O)c(O)cc12 ; strain or isolate: IFO1061 ; result: >500 µg/mL
CCCCCCCCCCNC1CCc2cccc(O)c2C1 ; result: 1 µM
CC1c2cc(OCc3ccccc3)c(OCc3ccccc3)cc2CCN1Cc1ccccc1 ; strain or isolate: IFO1061 ; result: >500 µg/mL
COC(=O)CCNC(=S)Nc1ccc(OC)c(OC)c1 ; strain or isolate: ATCC2094 ; result: 30 µg/mL
C[C@H]1[C@@H](O)O[C@@H]2OC3(C)CC[C@H]4[C@H](C)CC[C@@H]1[C@@]24OO3 ; strain or isolate: ATCC 90028 ; result: >50 µg/mL
Cn1ncnc2c(=O)n(C)c(=O)nc1-2 ; strain or isolate: IFO 0583 ; result: 20 µg/mL
CCn1cc(C(=O)Nn2c(C)nc3ccc([N+](=O)[O-])cc3c2=O)c(=O)c2ccc(C)nc21 ; result: <50 µg/mL
O=C(O)c1ccc(NC(=S)N/N=C/c2ccccc2)cc1 ; result: 1.73 µM
Cc1nn(C)c2nc(=O)n(C)c(=O)c-2[n+]1[O-] ; strain or isolate: IFO 0583 ; result: 100 µg/mL
COc1ccc(Cc2c3cc(OC)c(OC)cc3cc[n+]2C)cc1OC ; strain or isolate: IFO1061 ; result: >500 µg/mL
[CH3][Sn]([CH3])([CH3])[S]C[C@@H]1CCCN2CCCC[C@H]12 ; strain or isolate: ATCC 10231 ; result: >250 µg/mL
CCOP(=O)(OCC)OC[C@@H](O)[C@@H](O)[C@H](O)[C@@H](N)CO ; strain or isolate: ATCC26278 ; result: 600 µg/mL
CN(C/C=C/c1ccccc1)Cc1cccc2ccccc12 ; strain or isolate: 57 strains ; result: >100 µg/mL
CCOC(=O)C1C(c2ccccc2)CC(c2ccccc2)=CC12NCCN2 ; strain or isolate: CaCYP51 ; result: 100 µg/mL
CCn1cc(C(=O)NC)c(=O)c2ccc(C)nc21 ; result: 100–200 µg/mL
Nn1c(Nc2ccccc2)nc2sc3c(c2c1=O)CCC3 ; result: 12.5 µg/mL

A second listing of 5 rows from above:

smiles,strain or isolate,result
CC[C@@]1(O)C(=O)OCc2c1cc1n(c2=O)Cc2cc3c(N)c4c(cc3nc2-1)OCO4,A39,>100 µg/mL
OC(Cn1cncn1)(Cn1cncn1)c1ccc(F)cc1F,ATCC 64549,>200 µg/mL
CCCCCCN(CCCCCC)c1cc(N(CCCCCC)CCCCCC)c2ccc(C)nc2c1O,-,7.1 µg/mL
c1cc2c[n+](c1)CCCCCCCCCCCCCc1ccc[n+](c1)CCCCCCCCCCCCC2,ATCC 10231,0.12 µg/mL
CCOC(=O)C1C(c2ccc(OC)cc2)CC(c2ccccc2)=CC12NCCN2,CaCYP51,25 µg/mL

a–b is a range or a potency band. An empty or dashed field is not shown.